PubChem BioAssay AID504761 – Drosophila RNAi Screening Center | 2011
Assay: 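Fly genes whose silencing reduces dengue virus type 2 infection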 (primary screen). Cell system: D.Mel-2 cells from Drosophila. Reagents: long dsRNA against Drosophila genes. Treatment: infection with dengue virus type 2; dose and infection time not stated. Measured: 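Per well on two replicate plates, imaging gave the percent of cells positive for viral envelope protein, ranked by infection, and a nuclear count of cells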. Reading the numbers: infection score: higher = more virus-infected cells; cell count: higher = more cells in the well. Rule for the call: 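Low infection ranks in the two replicates (chance level up to 0.065) followed by a retest with a 1.5-fold or larger significant decrease, p below 0.05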. Meaning of the calls: active = confirmed: knock-down lowers infection; inactive = not picked or not confirmed.
In all, the deposit lists about 22,000 reagents; shown is an unselected part of those with a known target gene and a result. Of all reagents, 116 (0.52%) are marked active. 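Calls depend on retest data that are not deposited; infection was ranked per plate without normalising between plates; the unit of the infection score is not given.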 Raw values vary from plate to plate and are shown uncorrected. Unmarked entries are inactive. Not all columns of the deposit are shown. Not stated in the record: the amount of reagent, the time to read-out.

Against Ttc1 [DRSC15016], the values are infection score, replicate 1 = 3.29; cell count, replicate 1 = 5864. Against Ttc1 [DRSC22469], the values are infection score, replicate 1 = 1.8; cell count, replicate 1 = 5984. For Ttc1 [DRSC26111], the entry reads infection score, replicate 1 = 0.5 (active); cell count, replicate 1 = 5768. After knock-down of CG7685 [DRSC16285], the screen gave infection score, replicate 1 = 4.95; cell count, replicate 1 = 6625. After knock-down of CG7685 [DRSC27560], the screen gave infection score, replicate 1 = 17.6; cell count, replicate 1 = 6454. Fas1 [DRSC16669] gave infection score, replicate 1 = 2.51; cell count, replicate 1 = 6420.

Knock-down of CG11060 [DRSC06029] resulted in: infection score, replicate 1 = 2.64; cell count, replicate 1 = 6544.

Reformatted: 2 of the entries above
gene knocked down	DRSC id	infection score, replicate 1	cell count, replicate 1
Fas1	DRSC16669	2.51	6420
CG11060	DRSC06029	2.64	6544

Next records:
Against RSG7 [DRSC20274], the entry reads infection score, replicate 1 = 3.08; cell count, replicate 1 = 6402. Against RSG7 [DRSC22852] the deposit lists infection score, replicate 1 = 1.67; cell count, replicate 1 = 5497. Knock-down of tou [DRSC22710] resulted in: infection score, replicate 1 = 4.17; cell count, replicate 1 = 6744. Silencing of tou [DRSC27228] gave: infection score, replicate 1 = 6.36; cell count, replicate 1 = 6498. Depletion of a6 [DRSC18733] gave: infection score, replicate 1 = 3.76; cell count, replicate 1 = 5697.
